A mixed list of measured activities; the numbers were collected in NIAID ChemDB.

Shared fields: whole-cell or culture tests; species: Herpes simplex virus 1; endpoint: inhibition

Blank or dashed fields: not listed here. For "inactive" no cut-off is given. Percent inhibition refers to the dose given; in toxicity tests it is the harm to the cells. Rows are shuffled and stem from different studies.

SMILES,read by,strain,cell line,tested at,value
CC(=O)N[C@@H](CC(C)C)C(=O)N[C@@H](CC(C)C)C(=O)N[C@H](C=O)CCCN=C(N)N,plaque count,Fukuda,CV-1,10 µM,28%
CCn1cnc(=N)c2[nH]cnc21,plaque count,-,BSC-1,6 µg/mL,0%
CCCCCCCCCCCC(=O)OCC(CO[C@@H]1O[C@H](CO)[C@H](O)[C@H](O)[C@H]1O)OC(=O)CCCCCCCCCCC,plaque count,KOS,VERO,50 µg/mL,80%
Nc1nc2c(ncn2COCCO)c(=O)[nH]1,virus yield,7401H,VERO,0.6 µg/mL,>99%
CCCCC/C=C\C/C=C\CCCCCCCC(=O)OCC(CO[C@@H]1O[C@H](CO)[C@@H](O)[C@H](O)[C@H]1O)OC(=O)CCCCCCC/C=C\C/C=C\CCCCC,plaque count,KOS,VERO,50 µg/mL,50%
COc1ccc(NC(=S)Nc2ccc([N+](=O)[O-])cc2)cc1NC(=S)Nc1ccc([N+](=O)[O-])cc1,plaque count,-,VERO,5 µM,0%
C/C=C/c1cn([C@@H]2O[C@H](CO)[C@@H](O)[C@@H]2O)c(=O)[nH]c1=O,plaque count,C42PFA-R,VERO,100 µM,50%
Cc1ccc(NS(=O)(=O)c2cccc(S(=O)(=O)Nc3ccc(C)cc3)c2)cc1,plaque count,-,VERO,30 µM,>50%
Cc1ccc(Cn2cnc(=N)c3[nH]cnc32)cc1,plaque count,-,BSC-1,25 µg/mL,0%
O=[N+]([O-])c1ccc(COc2ccc(S(=O)(=O)c3ccc(OCc4ccc([N+](=O)[O-])cc4)cc3)cc2)cc1,plaque count,-,VERO,5 µM,0%
Nc1nc(=O)n([C@@H]2O[C@H](CO)[C@@H](O)[C@@H]2F)cc1I,virus yield,F,VERO,0.1 µM,93.7%
O=c1[nH]c(=O)n([C@@H]2O[C@H](CO)[C@@H](O)[C@@H]2F)cc1I,cytopathic effect,KOS,PRK,0.02 µg/mL,≥25%
CC/C=C/C/C=C/C/C=C/CCCCCCCC(=O)OCC(CO[C@@H]1O[C@H](CO)[C@@H](O)[C@H](O)[C@H]1O)OC(=O)CCCCCCC/C=C\C/C=C\CCCCC,plaque count,KOS,VERO,50 µg/mL,90%
Nc1ncnc2c1ncn2[C@@H]1O[C@H](CO)[C@@H](O)[C@@H]1O,virus yield,VL8737,HL,5 µg/mL,97%
O=c1[nH]c(=O)n([C@@H]2O[C@H](CO)[C@@H](O)[C@@H]2F)cc1I,virus yield,F,VERO,0.5 µM,99.5%
COc1ccc(NC(=S)Nc2ccc(Cl)cc2)cc1NC(=S)Nc1ccc(Cl)cc1,plaque count,-,VERO,30 µM,<50%
COc1cccc2c1C(=O)c1c(O)c3c(c(O)c1C2=O)C[C@@](O)(C(C)=O)C[C@@H]3O[C@H]1C[C@H](N(C)C)[C@H](O)[C@H](C)O1,virus yield,-,VERO,1 µM,19%
CCCCCCCC/C=C\CCCCCCCC(=O)OC(COC(=O)CCCCCCCCCCCCCCCCCCCCC)CO[C@@H]1O[C@H](CO)[C@@H](O)[C@H](O)[C@H]1O,plaque count,KOS,VERO,50 µg/mL,inactive
Nc1nc2c(ncn2COC(CO)CO)c(=O)[nH]1,plaque count,KOS,WI-38,2 µM,90%
Cc1cn([C@@H]2O[C@H](CO)[C@@H](O)[C@@H]2F)c(=O)[nH]c1=O,virus yield,F,VERO,0.5 µM,68%
O=c1[nH]c(=O)n([C@H]2C[C@H](O)[C@@H](CO)O2)cc1/C=C/Br,cytopathic effect,KOS,PRK,0.007 µg/mL,≥25%
N=c1ncn(Cc2ccco2)c2nc[nH]c12,plaque count,-,BSC-1,25 µg/mL,0%
C/C=C/c1cn([C@H]2C[C@H](O)[C@@H](CO)O2)c(=O)[nH]c1=O,plaque count,C42,VERO,100 µM,95%
O=S(=O)(c1ccc(OCc2ccncc2)cc1)c1ccc(OCc2ccncc2)cc1,plaque count,-,VERO,30 µM,<50%
N=c1ncn(Cc2cccc([N+](=O)[O-])c2)c2nc[nH]c12,plaque count,-,BSC-1,12 µg/mL,0%
CSC(=NCCc1ccccc1)Nc1ccc(Oc2ccc(/C=C(/NCCc3ccccc3)SC)cc2)cc1,plaque count,-,VERO,30 µM,>90%
Nc1nc(=S)c2[nH]c(-c3cscn3)nc2[nH]1,plaque count,-,VERO,10 µg/mL,0%
O=c1[nH]c(=O)n([C@H]2C[C@H](O)[C@@H](CO)O2)cc1CCCl,cytopathic effect,KOS,PRK,0.14 µg/mL,≥25%
CC(C)[C@H](NC(=O)[C@H](CCCN=C(N)N)NC(=O)N[C@@H](Cc1ccccc1)C(=O)O)C(=O)N[C@H](C=O)CCCN=C(N)N,plaque count,Fukuda,CV-1,10 µM,23%
O=c1ccn([C@@H]2O[C@H](CO)[C@@H](O)[C@@H]2F)c(=O)[nH]1,virus yield,F,VERO,0.1 µM,74%
CCCn1cnc(=N)c2[nH]cnc21,plaque count,-,BSC-1,6 µg/mL,0%

2 of the rows above, restated:

SMILES,read by,strain,cell line,tested at,value
Nc1ncnc2c1ncn2[C@@H]1O[C@H](CO)[C@@H](O)[C@@H]1O,virus yield,VL8737,HL,5 µg/mL,97%
Cc1ccc(Cn2cnc(=N)c3[nH]cnc32)cc1,plaque count,-,BSC-1,25 µg/mL,0%